Experimental findings from US10323012B2 (priority 2012, dated 2019) are described below.

This data set deals with HIV/VSV-G virions.

As to 8′,10′-Dihydroxy-miliusate, the “Selective Index (CC50/IC50), anti-HIV” value amounted to 9.5.

10′-Hydroxy-8′-oxo-miliusate: the “Selective Index (CC50/IC50), anti-HIV” value is 12.1.
